Laboratory results: PubChem BioAssay AID624099 (ICCB-Longwood, 2012)

Test: 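Host factors E2 relies on to silence an HPV18 LCR reporter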 (primary screen)
Cell system: human C33A cervical carcinoma cells (HPV-negative) stably expressing BPV1 E2 and an HPV18 LCR luciferase reporter
Reagents: siRNA pool against human genes, 40 nM
Timing: 72 h
Detection: 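HPV18 LCR reporter light per well, converted to plate-wise z-scores that exclude control wells, and averaged over triplicate plates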
Scale: mean z-score and z-score: higher = stronger reporter signal, weaker E2 silencing
Active means: 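Hit if mean z-score reaches 2 and two or more of three replicate z-scores also reach 2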
Here is an unselected part of about 21,000 deposited reagents. 497 of all reagents (2.4%) count as active. 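Higher z means weaker E2 silencing; only reporter increases were scored, and knock-downs that hurt cell survival may mask genuine repressor factors.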 Entries without a mark were called inactive. Reagents against one gene are numbered here. No sequences are given here.

With knock-down of IFNL3, the screen gave mean z-score 1.36; z-score, replicate A = 2.39; z-score, replicate B = 0.91; z-score, replicate C = 0.77.
For TIMM17A, the values are mean z-score 0.47; z-score, replicate A = 0.53; z-score, replicate B = 0.59; z-score, replicate C = 0.3.
PIANP scored mean z-score -0.24; z-score, replicate A = -0.15; z-score, replicate B = -0.36; z-score, replicate C = -0.2.
Against IP6K3, the entry reads mean z-score 0.22; z-score, replicate A = 0.52; z-score, replicate B = 0.29; z-score, replicate C = -0.16.
Against SLC46A2 the deposit lists mean z-score 0.3; z-score, replicate A = 0.22; z-score, replicate B = -0.01; z-score, replicate C = 0.69.
Depletion of ARSL gave: mean z-score 1.2; z-score, replicate A = 0.96; z-score, replicate B = 1.18; z-score, replicate C = 1.47.
Depletion of MOV10L1 gave: mean z-score 0.21; z-score, replicate A = 0.19; z-score, replicate B = 0.4; z-score, replicate C = 0.04.
For EIF2B1, the values are mean z-score -1.01; z-score, replicate A = -1.07; z-score, replicate B = -0.94; z-score, replicate C = -1.01.

2 entries from above, reduced to “mean z-score”.
MOV10L1: 0.21
EIF2B1: -1.01

Next entries:
With knock-down of REEP6 the results were mean z-score 0.56; z-score, replicate A = 0.6; z-score, replicate B = 0.8; z-score, replicate C = 0.27.
KRT28 scored mean z-score 0.1; z-score, replicate A = 0.47; z-score, replicate B = -0.06; z-score, replicate C = -0.12.
Silencing of TET2 #1 gave: mean z-score -1.01; z-score, replicate A = -1.44; z-score, replicate B = -1.06; z-score, replicate C = -0.53.
Silencing of TET2 #2 came out at: mean z-score 1.15; z-score, replicate A = 1.59; z-score, replicate B = 1.21; z-score, replicate C = 0.65.
ST13P7 scored mean z-score -0.56; z-score, replicate A = -0.7; z-score, replicate B = -0.19; z-score, replicate C = -0.8.
Depletion of ECHS1 resulted in: mean z-score 0.45; z-score, replicate A = 0.46; z-score, replicate B = 0.41; z-score, replicate C = 0.48.
